PubChem BioAssay AID1259414, Drosophila RNAi Screening Center | 2018

- Assay: 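Host factors increasing or decreasing Wolbachia levels in cultured fly cells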 (primary screen)
- Cell system: Drosophila JW18 cells infected with Wolbachia
- Knock-down reagent: long dsRNA against Drosophila genes, 0.25 µg dsRNA per well of a 384-well plate
- Time to read-out: 5 days
- Challenge: cells persistently infected with Wolbachia before knock-down; no added drug
- Detection: 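Imaged fluorescence in situ signal for Wolbachia 23S rRNA per DAPI-counted host cell, given as a robust z-score within each plate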
- Direction: Wolbachia per cell robust z: higher = more Wolbachia per host cell than the plate typical
- Call rule: 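Hit when robust z is 1.5 or more, or -1.5 or less, in at least two of three replicates; excludes dsRNAs with several or no targets, genes not expressed in JW18 and well A1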
The screen tested about 24,000 reagents; below is a random part of those that have a named target and a result. Of all reagents, about 1,210 (5%) were called active. 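Inactive calls also include excluded dsRNAs with several or no targets, genes unexpressed in JW18, and well A1, regardless of score.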 A plus sign joins genes that one reagent is predicted to hit.

no.	gene knocked down	dsRNA	Wolbachia per cell robust z, rep 1	Wolbachia per cell robust z, rep 2	Wolbachia per cell robust z, rep 3	activity call
1	Ir94b	DRSC21439	-0.878	-0.709	-0.625	inactive
2	CG34442	DRSC38639	-0.57	0.225	-0.95	inactive
3	Tsp42Ec	DRSC06192	1.51	0.585	1.11	inactive
4	Tsp42Ec	DRSC26768	-1.13	0.344	1.35	inactive
5	CG15912	DRSC18105	-1.62	-8.32	-0.124	active
6	CG15912	DRSC28275	0.746	0.00858	1.09	inactive
7	CG15912	DRSC41572	-0.608	-0.163	0.4	inactive
8	CG11134	DRSC19384	-0.721	-0.254	-0.744	inactive
9	CG15468	DRSC18051	-0.0693	-2.17	-0.166	inactive
10	CG2794	DRSC00534	0.11	0.526	-0.65	inactive
11	CG2794	DRSC41423	-2.42	0.551	-1.98	active
12	CG13168	DRSC06295	-0.177	-0.0502	-1.18	inactive
13	CG12693	DRSC17882	-1.98	0.944	0.376	inactive
14	Hip1	DRSC09812	-1.22	0.417	-1.66	inactive
15	Trf4-2	DRSC15237	0.534	-1.55	0.392	inactive
16	Trf4-2	DRSC25949	0.124	0.973	0.048	inactive
17	Gbeta13F	DRSC20247	0.301	-8.78	0.178	inactive
18	CG17036	DRSC02564	0.602	-0.519	0.914	inactive
19	CG17036	DRSC28145	1.29	0.969	1.05	inactive
20	NK7.1	DRSC25000	0.285	-0.236	0.409	inactive
21	Stam	DRSC03444	-5.07	-3.52	0.936	active
22	Stam	DRSC25607	1.08	1.35	1.95	inactive
23	CG5151	DRSC23220	0.556	0.417	-0.562	inactive
24	CG5151	DRSC29097	-3.57	-0.881	-2.96	inactive
25	CG5151	DRSC39056	2.51	1.83	2.61	inactive
26	CG34012	DRSC38846	-1.4	-0.791	-1.67	inactive
27	schlank	DRSC18102	0.296	0.747	0.102	inactive
28	schlank	DRSC18313	-0.0882	1.46	-0.551	inactive
29	NTPase	DRSC00761	-0.912	0.806	0.0774	inactive
30	NTPase	DRSC26233	-3.12	0.318	-0.444	inactive
31	NTPase	DRSC41566	0.604	0.941	-1.74	inactive

The list goes on (5 carried over from the part before).
no.	gene knocked down	dsRNA	Wolbachia per cell robust z, rep 1	Wolbachia per cell robust z, rep 2	Wolbachia per cell robust z, rep 3	activity call
27	schlank	DRSC18102	0.296	0.747	0.102	inactive
28	schlank	DRSC18313	-0.0882	1.46	-0.551	inactive
29	NTPase	DRSC00761	-0.912	0.806	0.0774	inactive
30	NTPase	DRSC26233	-3.12	0.318	-0.444	inactive
31	NTPase	DRSC41566	0.604	0.941	-1.74	inactive
32	Tmem43	DRSC10964	-0.659	-0.718	-1.22	inactive
33	Tmem43	DRSC26177	-0.166	-0.846	-1.78	inactive
34	Gr36a	DRSC22663	-1.51	-0.929	-1.24	inactive
35	Gr36a	DRSC27724	-0.536	0.817	0.84	inactive
36	Nurf-38	DRSC04629	1.05	0.981	1.22	inactive
37	Nurf-38	DRSC26858	-0.07	-0.322	0.436	inactive
38	CG31294	DRSC22217	-1.88	0.995	0.555	inactive
39	CG31294	DRSC26865	-0.735	0.131	-9.33	inactive
40	CG4744	DRSC06887	0.101	0.731	-0.0241	inactive
41	CG4744	DRSC28696	-0.398	-0.527	0.0961	inactive
42	CG14292	DRSC14772	0.559	0.318	0.964	inactive
43	CG17159 + CG17162	DRSC20899	-1.03	0.208	-0.899	inactive
44	CG17159 + CG17162	DRSC20900	0.424	0.787	0.576	inactive
45	Bet5	DRSC14600	-0.458	0.72	0.535	inactive
46	CG18823	DRSC18168	-0.224	-6.8	0.246	inactive
47	asRNA:CR43468 + Lfg	DRSC06853	0.966	1.26	0.66	inactive
48	LamC	DRSC07453	-8.96	1.01	0.223	inactive
49	LamC	DRSC25517	0.45	-1.06	-1.61	inactive
50	Taf10b	DRSC26605	-0.402	0.812	0.482	inactive
51	zen2	DRSC12633	0.874	0.552	0.0586	inactive
52	zen2	DRSC27908	-0.00659	-0.45	-0.0174	inactive
53	CG43902	DRSC17850	-2.37	-0.194	0.268	inactive
54	CG43902	DRSC17999	0.776	-0.385	-3.13	inactive
55	CG43902	DRSC25064	2.6	0.267	0.611	inactive
56	CG43902	DRSC41494	-0.271	-0.896	-0.00265	inactive
57	CG43902	DRSC41573	-1.31	-1.97	-0.908	inactive
58	SmydA-5	DRSC04867	0.0806	-0.672	-0.485	inactive
59	SmydA-5	DRSC27930	1.3	-13.3	0.352	inactive
60	Leash	DRSC15617	1.53	0.944	0.224	inactive
61	Leash	DRSC28712	0.891	0.747	-0.351	inactive
62	CG7409	DRSC10842	0.729	-0.135	-0.717	inactive
63	CG7409	DRSC30043	0.691	-0.499	1.04	inactive
64	Cds	DRSC10938	-1.34	0.251	-0.71	inactive
65	Nadk1a	DRSC05431	0.246	2.17	3.36	active
66	Nadk1a	DRSC06963	0.433	-0.143	-4.47	inactive
67	pall	DRSC10364	-7.87	0.0779	-0.335	inactive
68	Ddc	DRSC03314	0.707	-0.154	-1.26	inactive
69	Ddc	DRSC39110	0.484	0.0967	-4.71	inactive
70	PRL-1	DRSC03393	2.06	0.168	0.518	inactive
71	PRL-1	DRSC27332	0.744	0.705	1.4	inactive
72	dnr1	DRSC03948	-1.5	-0.642	-0.776	inactive
73	dnr1	DRSC04122	0.417	1.04	0.0838	inactive
74	dnr1	DRSC26101	-0.813	0.357	-0.857	inactive
75	CG13133	DRSC02230	0.161	0.814	-0.475	inactive
76	AttB	DRSC06734	-0.0717	0.153	0.988	inactive
77	AttB	DRSC28997	-3.47	-0.859	0.626	inactive
78	IntS14	DRSC00668	0.74	-0.27	-1.03	inactive
79	Acsx3	DRSC14309	-0.0743	0.373	1.07	inactive
80	GILT1	DRSC16565	0.576	-0.468	0.291	inactive
81	CG4017	DRSC02733	-1.5	0.924	0.39	inactive
82	CG15739	DRSC19705	0.405	-0.904	-0.0198	inactive
83	CG15739	DRSC28638	0.103	0.761	-0.521	inactive
84	CG15739	DRSC41574	-0.253	-0.136	0.0568	inactive
85	Arfrp1	DRSC18417	0.774	-0.421	0.562	inactive
86	Dcr-2	DRSC06992	-3.54	-1.38	0.195	inactive
87	Dcr-2	DRSC29436	-1.11	0.273	-0.198	inactive
